## Results of single-concentration screens

From ChEMBL document CHEMBL3988442, “University of Dundee, Small-Polar-MMV Screening Library” (2021).

A: 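Growth of Mycobacterium tuberculosis over 3 days (7H9 medium with glucose and tyloxapol); the read-out is not stated. Compounds at 500 µM. Higher reads as more growth inhibition (inferred: compounds with an IC50 in retests scored well above the rest). Of about 18,000 compounds tested this way, about 1,400 (7.9%) reached 50% or more in at least one test.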
B: 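Whole-cell growth test on Mycobacterium tuberculosis, read after 4 days in a medium based on cholesterol and the lipid DPPC; the read-out is not stated. Compounds at 500 µM. The record gives no direction; compounds that gave an IC50 in retests scored well above the rest, so higher reads as more growth inhibition. Size under these conditions: about 18,000 compounds, about 900 of them at 50% or above in at least one test.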

Each number is a percent effect as filed.
The controls that fix the scale are not given in the record; negative values are as filed.
This is part of a subset picked to be rich in strong results.
A dash means the value is not listed here; it may have been measured.

SMILES,A,B
NCC(CO)Cc1cc(F)cc(Br)c1 (stereo not drawn),64.69,-
Cn1nccc1CCC(=O)N1C[C@H](C2CC2)[C@@H](N)C1,8.647,-
Cc1ncsc1CCCNC(=O)c1cn[nH]c1,12.49,-
O=C(NCC1CCS(=O)(=O)C1)c1cccc2cn[nH]c12 (stereo not drawn),10.86,8.294
O=C(NCc1ccncc1)NCC1CCN(C2CC2)C1 (stereo not drawn),35.26,-
O=C(c1ccccc1I)N1CCNCC1,18.94,-
CNc1cccnc1CN,0.9683,-
CC(=O)N1CCCN(S(=O)(=O)c2cnn(C)c2)CC1,-5.24,-
O=C(Cn1cc(Br)cn1)Nc1ccc2c(c1)OCCO2,53.5,54.5
CSc1ncc(C(=O)NCC2CCOC2)cn1 (stereo not drawn),20.05,-
CCCN(CCO)CCC(=O)N1CCc2sccc2C1,47.41,-
COCCN1CCN(CCc2ccccn2)CC1C (stereo not drawn),1.987,-
CC1(CO)CCCN1 (stereo not drawn),4.146,-
CC(C)[C@H](N)C(=O)N1CCN(C(=O)N(C)C)CC1,-,-2.392
CCC1CN(C(=O)c2ccc3ccccc3n2)CCO1 (stereo not drawn),72.88,75.3
CC(=O)N1CCC(C(=O)NCCc2sc(C)nc2C)C1 (stereo not drawn),-1.083,-
CC(C)c1cccc(NC(=O)CN2CCN(C)CC2)c1,46.1,27.04
NC1CCCOc2ccc(F)cc21 (stereo not drawn),15.91,-
O=C(NCCC1CCCCO1)NC1CC=CC1 (stereo not drawn),23.44,19.85
CN(CC(=O)N1CCNC(=O)C1)Cc1csc(Br)c1,27.2,-
Cc1ccc2nc(CN3CCOCS3(=O)=O)cn2c1,12.19,-
CCC(=O)NC(C)(C#N)C(C)C (stereo not drawn),5.911,3.912
CNC(=O)COc1ccccc1OC,-6.95,-
COC(=O)Cn1ccc(=O)c2cc(Cl)ccc21,-12.75,-
CCCN1CCN(c2ccccn2)CC1,-,-1.268
CNC(C(N)=O)c1cc(OC)ccc1Br (stereo not drawn),33.7,-
CN(C)c1nccc(NC(=O)c2ccc(Br)o2)n1,-,21.94
O=C(CCN1CCC(O)(CO)C1)Nc1cccc(Cl)c1 (stereo not drawn),25.46,-
CC(=O)N1CCC(C(=O)N(C)Cc2cscn2)CC1,-,3.451
CN(Cc1cnn(C)c1)C(=O)C1CCCN(C(N)=O)C1 (stereo not drawn),8.624,-
Nc1cc(-c2cccnc2)nn1CCO,7.549,-
Cc1ccc(C(=O)NCc2ccnc(N(C)C)c2)cn1,-,11.6
COc1cccc(CN(C)C(=O)c2cc[nH]n2)n1,21.29,5.392
CCOC(=O)COc1ccc(C(N)=O)cc1,-,-21.61
O=C(CN1CCCC(O)C1)NCCCc1ccccn1 (stereo not drawn),6.492,-
N#Cc1cccc(OCCSc2nnc[nH]2)c1,37.9,41.74
CC(=O)c1ccc(N)nc1,-0.162,-
CC(=O)N1CCN(CC(O)COc2ccccc2)CC1 (stereo not drawn),-,5.372
Cc1ccc(C(CN)N2CCOCC2)o1 (stereo not drawn),34.14,1.961
CN(CCCO)C1CCN(C(=O)Nc2ccsc2)CC1,6.588,-
CC(=O)c1ccc(C(=O)NC(C)c2n[nH]c(=O)[nH]2)s1 (stereo not drawn),-,9.708
CC(C)C(=O)c1ccncc1,7.188,-
CC(C)CSc1nnc(CN2CCCC2=O)o1,37.56,33.06
O[C@H]1CCN(CC(F)(F)F)C1,-16.25,-
COC1CCN(C(=O)Nc2ccccc2)CC1,25.41,-
O=C(CCN1CCC[C@H]1CO)Nc1ccccc1,14.09,9.396
COC(=O)c1c(C)[nH]c(C(=O)NC2CC2)c1C,-,-15.49
CC(=O)c1ccc(-n2ccnn2)cc1,-,-2.613
Cc1cc(C(=O)NCCNc2ncccn2)on1,8.583,-
CC(C)[C@H]1CN(C(=O)c2cnc3c(c2)CCC3)C[C@@H]1N,-,2.226
CSCCC(OC(=O)c1ccc(F)cc1)C(N)=O (stereo not drawn),13.47,-
Cc1cc(NC(=O)CN(C)Cc2ccccc2)no1,76.08,77.85
CCc1c[nH]c(S(=O)(=O)Cc2noc(C(C)C)n2)n1,-,-10.3
Cc1cc(NC(=O)NCC(O)c2ccccc2F)no1 (stereo not drawn),-10.63,-
CC(O)c1cnc2ccccc2c1 (stereo not drawn),-,-6.373
Cc1cc(CN2CCC(Oc3cccnc3)CC2)on1,52.1,33.67
NC(=O)CSc1nnc(-c2ccco2)o1,3.765,-
CS(=O)(=O)CCS(N)(=O)=O,3.909,-
CN(Cc1ncc[nH]1)C(=O)Cc1cc(F)cc(F)c1,7.901,-
Cc1ccn(Cc2cccc(C(=O)N(C)C)c2)c(=O)c1,35.12,-
O=C1CCN(CCOc2cc(F)cc(Br)c2)CCN1,71.76,-
NC1CCCc2ccc(F)cc21 (stereo not drawn),-,-24.46
Cc1nn(CCO)c(C)c1CN1CCCC(C#N)C1 (stereo not drawn),4.153,-
CN(CCCNC(=O)[C@H]1CC[C@@H](N)C1)c1ccccc1,41.05,-
O=C(NCC(CO)Cc1cccnc1)C1CCCC1 (stereo not drawn),-,10.81
COc1ccc(C(=O)NCC2CCCN2)cc1 (stereo not drawn),15.99,-4.635
Cn1ncnc1CN1CCCC1C(=O)N1CCSCC1 (stereo not drawn),-,6.352
CCC[C@H]1CN(C(=O)c2cccc(OC)c2C)C[C@@H]1N,-,13.61
NCC1(O)CCN(Cc2ccccc2)CC1,-,-16.77
O=c1c2ccccc2ncn1CCN1CCOCC1,7.31,-
OC1(CNCc2nnc3ccccn23)CNCCOC1 (stereo not drawn),-20.56,-
COCCCNC(=O)c1ccn(-c2ccc(F)cc2)n1,57.55,62.01
N[C@@H]1C[C@H]1c1ccc2c(c1)OCCO2,-,50.13

The last 6 entries again:

| SMILES | A | B |
|---|---|---|
| `CCC[C@H]1CN(C(=O)c2cccc(OC)c2C)C[C@@H]1N` | - | 13.61 |
| `NCC1(O)CCN(Cc2ccccc2)CC1` | - | -16.77 |
| `O=c1c2ccccc2ncn1CCN1CCOCC1` | 7.31 | - |
| `OC1(CNCc2nnc3ccccn23)CNCCOC1` (stereo not drawn) | -20.56 | - |
| `COCCCNC(=O)c1ccn(-c2ccc(F)cc2)n1` | 57.55 | 62.01 |
| `N[C@@H]1C[C@H]1c1ccc2c(c1)OCCO2` | - | 50.13 |